From article PMC9017343

biological target: SARS-CoV S trimer (ectodomain) (SARS-CoV) (UniProt P59594); assay: SPR

Substance | Kd [pM] | koff [s⁻¹]
ADG-2 | 1.41 | 1.73e-06
CR3022 | 0.759 | 6.52e-08
DH1047 | 1.11 | 1.69e-07
REGN10985 | 4650 | 0.0019
S2H97 | 70.6 | 3.67e-05
S2X259 | 3.65 | 8.78e-07
